# Publication PMC6488583
# The chains behind the UniProt entries cited, without tags or fusion partners. Residues count along the entry.
# UniProt P02751, 32-2477: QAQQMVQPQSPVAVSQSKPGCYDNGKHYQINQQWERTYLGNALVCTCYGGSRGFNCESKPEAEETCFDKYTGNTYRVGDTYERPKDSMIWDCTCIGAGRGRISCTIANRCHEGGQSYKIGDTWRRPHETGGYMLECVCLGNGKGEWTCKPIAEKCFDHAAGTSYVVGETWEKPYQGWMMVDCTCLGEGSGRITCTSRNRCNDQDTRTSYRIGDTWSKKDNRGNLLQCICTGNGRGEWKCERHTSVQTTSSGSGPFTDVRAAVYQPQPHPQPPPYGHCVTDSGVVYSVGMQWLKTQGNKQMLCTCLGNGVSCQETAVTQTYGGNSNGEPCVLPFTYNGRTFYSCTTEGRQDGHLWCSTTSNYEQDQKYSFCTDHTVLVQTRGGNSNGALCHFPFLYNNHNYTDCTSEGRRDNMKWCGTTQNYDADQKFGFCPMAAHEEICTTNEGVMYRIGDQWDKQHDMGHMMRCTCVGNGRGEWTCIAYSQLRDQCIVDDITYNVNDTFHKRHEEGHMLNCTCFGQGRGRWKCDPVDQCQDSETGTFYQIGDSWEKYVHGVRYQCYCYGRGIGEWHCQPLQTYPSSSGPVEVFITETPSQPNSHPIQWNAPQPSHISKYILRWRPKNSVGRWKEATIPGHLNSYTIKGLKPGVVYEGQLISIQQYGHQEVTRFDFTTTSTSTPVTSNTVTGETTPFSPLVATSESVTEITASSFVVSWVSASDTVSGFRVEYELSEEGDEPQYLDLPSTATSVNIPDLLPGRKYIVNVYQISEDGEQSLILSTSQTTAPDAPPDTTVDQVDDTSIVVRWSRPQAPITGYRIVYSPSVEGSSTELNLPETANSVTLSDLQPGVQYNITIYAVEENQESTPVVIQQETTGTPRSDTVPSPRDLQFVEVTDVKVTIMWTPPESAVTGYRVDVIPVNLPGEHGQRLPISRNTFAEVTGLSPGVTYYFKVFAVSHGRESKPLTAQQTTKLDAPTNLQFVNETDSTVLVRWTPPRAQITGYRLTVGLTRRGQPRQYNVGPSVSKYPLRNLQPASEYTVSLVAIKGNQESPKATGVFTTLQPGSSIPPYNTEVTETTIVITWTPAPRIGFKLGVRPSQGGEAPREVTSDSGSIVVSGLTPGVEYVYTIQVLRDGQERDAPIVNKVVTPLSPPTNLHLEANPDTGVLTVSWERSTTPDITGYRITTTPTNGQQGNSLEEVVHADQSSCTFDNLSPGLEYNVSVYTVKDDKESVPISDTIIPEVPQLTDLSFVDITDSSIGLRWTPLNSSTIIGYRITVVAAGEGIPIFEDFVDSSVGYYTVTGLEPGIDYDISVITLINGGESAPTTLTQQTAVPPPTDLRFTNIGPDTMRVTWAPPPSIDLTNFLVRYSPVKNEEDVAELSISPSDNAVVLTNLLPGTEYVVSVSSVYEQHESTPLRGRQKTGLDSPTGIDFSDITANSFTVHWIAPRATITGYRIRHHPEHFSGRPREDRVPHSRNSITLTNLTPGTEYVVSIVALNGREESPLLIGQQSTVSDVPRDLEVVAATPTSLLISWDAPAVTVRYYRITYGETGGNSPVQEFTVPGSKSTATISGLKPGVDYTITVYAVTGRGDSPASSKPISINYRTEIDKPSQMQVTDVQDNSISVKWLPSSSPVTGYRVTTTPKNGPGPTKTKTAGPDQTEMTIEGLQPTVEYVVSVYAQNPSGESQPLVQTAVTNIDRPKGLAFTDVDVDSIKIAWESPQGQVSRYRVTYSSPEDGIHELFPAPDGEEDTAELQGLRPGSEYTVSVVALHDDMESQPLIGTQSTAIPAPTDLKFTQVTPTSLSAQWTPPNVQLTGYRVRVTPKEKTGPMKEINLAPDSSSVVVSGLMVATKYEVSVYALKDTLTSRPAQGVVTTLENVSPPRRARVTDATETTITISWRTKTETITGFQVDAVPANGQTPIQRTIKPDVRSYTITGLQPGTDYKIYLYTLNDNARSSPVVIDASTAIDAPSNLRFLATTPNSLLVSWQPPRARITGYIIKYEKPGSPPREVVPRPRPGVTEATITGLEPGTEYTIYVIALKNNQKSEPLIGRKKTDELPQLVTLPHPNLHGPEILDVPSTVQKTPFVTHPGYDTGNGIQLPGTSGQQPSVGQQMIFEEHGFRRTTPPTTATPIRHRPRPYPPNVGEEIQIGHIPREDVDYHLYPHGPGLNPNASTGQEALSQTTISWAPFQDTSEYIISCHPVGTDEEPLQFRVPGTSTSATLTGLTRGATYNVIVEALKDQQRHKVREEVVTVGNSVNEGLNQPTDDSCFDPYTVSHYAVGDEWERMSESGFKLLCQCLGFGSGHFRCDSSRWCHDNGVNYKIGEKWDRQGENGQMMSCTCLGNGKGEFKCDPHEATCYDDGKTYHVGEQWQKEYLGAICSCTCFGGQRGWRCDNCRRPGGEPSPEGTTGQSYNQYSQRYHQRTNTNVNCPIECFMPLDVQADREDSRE
# Molecular target: full-length human fibronectin (UniProt P02751)
# Assay: ELISA
# Settings: parent: est. 0.29; read off a plot
row,Substance,response (Absorbance at 405 nm)
1,"UpaB α-domain (α^UpaB), residues 38–500, from UPEC CFT073 N110A; K111A; N112A; D142A; N171A; D206A; D208A; N212A; N241A; N274A; N276A; N303A; N305A; K325A; D329A; D331A; D349A",0.2
2,"UpaB α-domain (α^UpaB), residues 38–500, from UPEC CFT073 V151A; I221A; V249A; A252G; A253G; Y285A; Y312A; V339A",0.26
